Results of unrelated studies side by side (data: NIAID ChemDB).

Common to all: toxicity to cultured cells; cell line: MT-4; measure: CC50

Two numbers with a dash give a range or band. Conditions beyond the fields shown may differ between rows. CCn: concentration that lowers growth or viability of the cells by n%.

{"SMILES": "Cc1ccc(C(C)C)c2oc(=O)c(C(=O)/C=C/c3ccc(O)cc3)c(O)c12", "result": ">8.95 µg/mL"}
{"SMILES": "CC(C)CN(C[C@@H](O)[C@H](Cc1ccccc1)NC(=O)O[C@H]1CO[C@H]2OCC[C@H]21)S(=O)(=O)c1ccc(-c2csc(N)n2)cc1", "read by": "MTT", "result": "85.1 µM"}
{"SMILES": "N#CSc1ccc2nc(NC(=O)CN3C(=O)S/C(=C/c4ccccc4)C3=O)sc2c1", "read by": "MTT", "result": "73 µM"}
{"SMILES": "CC(C)CN(C[C@@H](O)[C@H](Cc1ccccc1)NC(=O)O[C@H]1CO[C@H]2OCC[C@H]21)S(=O)(=O)c1ccc(-c2coc(-c3ccc(Br)cc3)n2)cc1", "read by": "MTT", "result": ">32.4 µM"}
{"SMILES": "COc1cc2nc(SCC(=O)Nc3ccc(Cl)cc3)nc(Nc3c(Cl)cc(/C=C/C#N)cc3Cl)c2cc1OC", "read by": "MTT", "result": ">29.5 µM"}
{"SMILES": "N#Cc1ccc(Nc2nnnn2-c2cccc(C(F)(F)F)c2)cc1", "read by": "MTT / absorbance", "result": "18 µM"}
{"SMILES": "O=C(O)CCCCCNC1c2ccc3cc4c5c6c(cc7ccc8cc9cc1c1c9c9c8c7c6c9c6c1c2c3c56)C4", "read by": "trypan blue", "result": ">1500 µM"}
{"SMILES": "COc1cc2nc(S(=O)CC(=O)Nc3cc([N+](=O)[O-])ccc3F)nc(Nc3c(Cl)cc(/C=C/C#N)cc3Cl)c2cc1OC", "read by": "MTT", "result": ">194 µM"}
{"SMILES": "O=C1CSC(=Nc2cccc(C(F)(F)F)c2)N1c1cccc(Cl)c1", "read by": "MTT / absorbance", "result": ">100 µM"}
{"SMILES": "CCOC(=O)c1cnn2c1n[n+]([O-])c1ccccc12", "result": "143 µM"}
{"SMILES": "CCCc1nc(-c2ccc(S(=O)(=O)N(CC(C)C)C[C@@H](O)[C@H](Cc3ccccc3)NC(=O)O[C@H]3CO[C@H]4OCC[C@H]43)cc2)co1", "read by": "MTT", "result": ">32.4 µM"}
{"SMILES": "COc1cc2nc(S(=O)CC(=O)Nc3ccc(F)cc3)nc(Nc3c(C)cc(/C=C/C#N)cc3C)c2cc1OC", "read by": "MTT", "result": "27.4 µM"}
{"SMILES": "Cc1ccc(C(C)C)c2oc(=O)c(C(=O)/C=C/c3cccc([N+](=O)[O-])c3)c(O)c12", "result": "10.9 µg/mL"}
{"SMILES": "O=C1c2ccccc2N(Cc2ccccc2Cl)S(=O)(=O)N1COCc1ccccc1", "result": "23.4–32 µM"}
{"SMILES": "Nc1nccc2c1nnn2[C@H]1CC[C@@H](CO)O1", "result": "387 µM"}
{"SMILES": "N[C@@H](CCCCNC1c2ccc3cc4c5c6c(cc7ccc8cc9cc1c1c9c9c8c7c6c9c6c1c2c3c56)C4)C(=O)O", "read by": "trypan blue", "result": ">850 µM"}
{"SMILES": "COc1ccc(N2C(=O)CSC2=Nc2cccc(C(F)(F)F)c2)cc1", "read by": "MTT / absorbance", "result": "44 µM"}
{"SMILES": "[O-][n+]1nc2c(Br)cnn2c2ccc(Cl)cc21", "result": ">200 µM"}
{"SMILES": "CC1OC(OCC2OC(Oc3c(-c4cc(O)c(O)c(O)c4)oc4cc(O)cc(O)c4c3=O)C(O)C(O)C2O)C(O)C(O)C1O", "read by": "MTT", "result": ">300 µM"}
{"SMILES": "O=C1c2ccccc2N(Cc2ccccc2)S(=O)(=O)N1Cc1ccccc1Cl", "result": "32.5–39.1 µM"}
{"SMILES": "COc1cc(/C=C/C(=O)c2c(O)c3cc(Cl)c(C)cc3oc2=O)ccc1O", "result": "6.64 µg/mL"}
{"SMILES": "O=C(NNCCO)c1[nH]c2ccc(Cl)cc2c1S(=O)(=O)c1ccccc1", "read by": "MTT", "result": ">100 µM"}
{"SMILES": "Nc1nccc2c1ncn2[C@H]1CC[C@@H](CO)O1", "result": "215 µM"}
{"SMILES": "COC(=O)c1ccc(NC(=O)COc2cccnc2-c2cccc3ccccc23)c(Cl)c1", "read by": "MTT / absorbance", "result": "9.35 µM"}
{"SMILES": "COc1ccc(/C=C2/SC(=O)N(CC(=O)Nc3nc4ccc(SC#N)cc4s3)C2=O)cc1", "read by": "MTT", "result": ">100 µM"}
{"SMILES": "Nc1nccc2nn([C@@H]3O[C@H](CO)[C@@H](O)[C@H]3O)nc12", "result": "358 µM"}
{"SMILES": "COc1cc2nc(S(=O)CC(=O)Nc3ccc(Cl)cc3)nc(Nc3c(Cl)cc(/C=C/C#N)cc3Cl)c2cc1OC", "read by": "MTT", "result": "14.4 µM"}
{"SMILES": "Cc1ccccc1Sc1c(C(=O)NNCCO)[nH]c2ccc(Cl)cc12", "read by": "MTT", "result": "21 µM"}
{"SMILES": "Cc1cccc(C)c1OCC(=O)N[C@@H](Cc1ccccc1)[C@H](O)CN(CC(C)C)S(=O)(=O)c1ccc(-c2ccn[nH]2)cc1", "read by": "MTT", "result": "63.1 µM"}
{"SMILES": "O=C(O)C(Cc1ccc(O)c(O)c1)OC(O)/C=C/C1=CC(O)C(O)C=C1", "read by": "MTT", "result": "55 µM"}
{"SMILES": "O=C1CSC(=Nc2cccc(C(F)(F)F)c2)N1c1ccc(Cl)cc1", "read by": "MTT / absorbance", "result": ">100 µM"}
{"SMILES": "COc1ccc(-c2ncccc2OCC(=O)Nc2ccc(C(N)=O)cc2)cc1", "read by": "MTT / absorbance", "result": "176 µM"}
{"SMILES": "OC[C@H]1O[C@@H](n2nnc3ccnc(Cl)c32)[C@H](O)[C@@H]1O", "result": "15 µM"}
{"SMILES": "COC(=O)c1cnn2c1nnc1ccccc12", "result": ">200 µM"}
{"SMILES": "COC(=O)c1ccc(NC(=O)COc2cccnc2-c2cccc3ccccc23)c(Br)c1", "read by": "MTT / absorbance", "result": "21.6 µM"}
{"SMILES": "O=C1c2ccccc2N(Cc2ccc(Cl)c(Cl)c2)S(=O)(=O)N1Cc1ccccc1", "result": "27.7–27.8 µM"}
{"SMILES": "COc1cc(/C=C/c2nc(NC(=S)Nc3ccccc3Cl)c3ccccc3n2)cc(OC)c1OC", "read by": "MTT", "result": "3.85 µg/mL"}
{"SMILES": "Cc1cc(/C=C/C#N)cc(C)c1Nc1ccnc(Nc2ccc(C#N)cc2)n1", "read by": "MTT", "result": "4.38 µM"}
{"SMILES": "COc1cc(/C=C/c2nc(NC(=O)Nc3ccccc3C)c3ccccc3n2)cc(OC)c1OC", "read by": "MTT", "result": "1.89 µg/mL"}
{"SMILES": "OC[C@H]1O[C@@H](n2nnc3c(Cl)nccc32)C[C@@H]1O", "result": "272 µM"}
{"SMILES": "COc1cc(/C=C2/SC(=O)N(CC(=O)Nc3nc4ccc(SC#N)cc4s3)C2=O)cc(OC)c1OC", "read by": "MTT", "result": "54 µM"}
{"SMILES": "N#Cc1cnn2c1n[n+]([O-])c1ccccc12", "result": "54 µM"}
{"SMILES": "COc1cc(/C=C/c2nc(NC(=S)Nc3cccc(Cl)c3)c3ccccc3n2)cc(OC)c1OC", "read by": "MTT", "result": "3.25 µg/mL"}
{"SMILES": "N#CSc1ccc2nc(NC(=O)CN3C(=O)S/C(=C/c4ccc(Cl)cc4)C3=O)sc2c1", "read by": "MTT", "result": ">100 µM"}
{"SMILES": "NC(=O)c1ccc(NC(=O)COc2cccnc2-c2ccc(C(F)(F)F)cc2)cc1", "read by": "MTT / absorbance", "result": "69.5 µM"}
{"SMILES": "CC1COc2c(N3CCN(C)CC3)c(F)cc3c(=O)c(C(=O)O)cn1c23", "result": ">200 µM"}
{"SMILES": "O=C1CSC(=Nc2cccc(C(F)(F)F)c2)N1c1cccc(C(F)(F)F)c1", "read by": "MTT / absorbance", "result": ">100 µM"}
{"SMILES": "Nc1ncnc2c1nnn2[C@@H]1O[C@H](CO)[C@@H](O)[C@H]1O", "result": "0.3 µM"}
{"SMILES": "O=C1c2ccccc2N(Cc2ccccc2)S(=O)(=O)N1Cc1ccc(Cl)cc1", "result": "46.5–159.5 µM"}
{"SMILES": "Nc1ncnc2c1nnn2[C@H]1CC[C@@H](CO)O1", "result": "0.3 µM"}
{"SMILES": "CC(C)CN(C[C@@H](O)[C@H](Cc1ccccc1)NC(=O)O[C@H]1CO[C@H]2OCC[C@H]21)S(=O)(=O)c1ccc(-c2csc(NCCCN(C)C)n2)cc1", "read by": "MTT", "result": "20.4 µM"}
{"SMILES": "COc1cc2nc(S(=O)CC(=O)Nc3ccccc3C(F)(F)F)nc(Nc3c(Cl)cc(/C=C/C#N)cc3Cl)c2cc1OC", "read by": "MTT", "result": ">192 µM"}
{"SMILES": "OC[C@H]1O[C@@H](n2nc3ccnc(Cl)c3n2)[C@H](O)[C@@H]1O", "result": ">398 µM"}
{"SMILES": "Cc1ccc(S(=O)(=O)c2c(C(=O)NCCO)[nH]c3ccc(Cl)cc23)c(C)c1", "read by": "MTT", "result": ">100 µM"}
{"SMILES": "Nc1nccc2c1ncn2[C@@H]1O[C@H](CO)[C@@H](O)[C@H]1O", "result": "218 µM"}
{"SMILES": "COc1cc(/C=C/c2nc(NC(=S)Nc3ccccc3C)c3ccccc3n2)cc(OC)c1OC", "read by": "MTT", "result": "4.05 µg/mL"}
{"SMILES": "CNc1nc(-c2ccc(S(=O)(=O)N(CC(C)C)C[C@@H](O)[C@H](Cc3ccccc3)NC(=O)O[C@H]3CO[C@H]4OCC[C@H]43)cc2)cs1", "read by": "MTT", "result": "64.6 µM"}
{"SMILES": "COc1ccc(/C=C/C(=O)c2c(O)c3cc(Cl)c(C)cc3oc2=O)cc1", "result": ">33.8 µg/mL"}
{"SMILES": "O=C1CSC(=Nc2cccc(C(F)(F)F)c2)N1c1ccc(F)c(Cl)c1", "read by": "MTT / absorbance", "result": ">100 µM"}

A second listing of 6 rows from above:

O=C1c2ccccc2N(Cc2ccc(Cl)c(Cl)c2)S(=O)(=O)N1Cc1ccccc1 ; result: 27.7–27.8 µM
O=C1CSC(=Nc2cccc(C(F)(F)F)c2)N1c1ccc(Cl)cc1 ; read by: MTT / absorbance ; result: >100 µM
CC1OC(OCC2OC(Oc3c(-c4cc(O)c(O)c(O)c4)oc4cc(O)cc(O)c4c3=O)C(O)C(O)C2O)C(O)C(O)C1O ; read by: MTT ; result: >300 µM
O=C1c2ccccc2N(Cc2ccccc2Cl)S(=O)(=O)N1COCc1ccccc1 ; result: 23.4–32 µM
COC(=O)c1ccc(NC(=O)COc2cccnc2-c2cccc3ccccc23)c(Br)c1 ; read by: MTT / absorbance ; result: 21.6 µM
OC[C@H]1O[C@@H](n2nnc3ccnc(Cl)c32)[C@H](O)[C@@H]1O ; result: 15 µM